Earlier results in article PMC8753592, “Long-acting capsid inhibitor protects macaques from repeat SHIV challenges” (Nature, 2021).

Tests used:
Conditions in all cases: ref Yant et al, Nat.Med, 2019;[4]; cited from earlier work
[1] = tested on: CA mutant L56I
[2] = tested on: CA mutant Q67H
[3] = tested on: CA mutant M66I
[4] = tested on: CA mutant N74D

## CC(C)(C#Cc1ccc(-c2ccc(Cl)c3c(NS(=O)(=O)C4CC4)nn(CC(F)F)c23)c([C@H](Cc2cc(F)cc(F)c2)NC(=O)Cn2nc(C(F)F)c3c2C(F)(F)[C@@H]2C[C@H]32)n1)S(C)(=O)=O [GS-CA1]
[1]
  In vitro fold-resistance (CA mutant/wild-type), L56I: 666
[2]
  In vitro fold-resistance (CA mutant/wild-type), Q67H: 7.7
[3]
  In vitro fold-resistance (CA mutant/wild-type), M66I: 2,272
[4]
  In vitro fold-resistance (CA mutant/wild-type), N74D: 18
